# Data reported in PubChem BioAssay AID588689 (Southern Research Specialized Biocontainment Screening …, 2011).
# By UniProt entry, the sequences of proteins in these tests, tags left out.
# UniProt P29991, whole entry, looked up: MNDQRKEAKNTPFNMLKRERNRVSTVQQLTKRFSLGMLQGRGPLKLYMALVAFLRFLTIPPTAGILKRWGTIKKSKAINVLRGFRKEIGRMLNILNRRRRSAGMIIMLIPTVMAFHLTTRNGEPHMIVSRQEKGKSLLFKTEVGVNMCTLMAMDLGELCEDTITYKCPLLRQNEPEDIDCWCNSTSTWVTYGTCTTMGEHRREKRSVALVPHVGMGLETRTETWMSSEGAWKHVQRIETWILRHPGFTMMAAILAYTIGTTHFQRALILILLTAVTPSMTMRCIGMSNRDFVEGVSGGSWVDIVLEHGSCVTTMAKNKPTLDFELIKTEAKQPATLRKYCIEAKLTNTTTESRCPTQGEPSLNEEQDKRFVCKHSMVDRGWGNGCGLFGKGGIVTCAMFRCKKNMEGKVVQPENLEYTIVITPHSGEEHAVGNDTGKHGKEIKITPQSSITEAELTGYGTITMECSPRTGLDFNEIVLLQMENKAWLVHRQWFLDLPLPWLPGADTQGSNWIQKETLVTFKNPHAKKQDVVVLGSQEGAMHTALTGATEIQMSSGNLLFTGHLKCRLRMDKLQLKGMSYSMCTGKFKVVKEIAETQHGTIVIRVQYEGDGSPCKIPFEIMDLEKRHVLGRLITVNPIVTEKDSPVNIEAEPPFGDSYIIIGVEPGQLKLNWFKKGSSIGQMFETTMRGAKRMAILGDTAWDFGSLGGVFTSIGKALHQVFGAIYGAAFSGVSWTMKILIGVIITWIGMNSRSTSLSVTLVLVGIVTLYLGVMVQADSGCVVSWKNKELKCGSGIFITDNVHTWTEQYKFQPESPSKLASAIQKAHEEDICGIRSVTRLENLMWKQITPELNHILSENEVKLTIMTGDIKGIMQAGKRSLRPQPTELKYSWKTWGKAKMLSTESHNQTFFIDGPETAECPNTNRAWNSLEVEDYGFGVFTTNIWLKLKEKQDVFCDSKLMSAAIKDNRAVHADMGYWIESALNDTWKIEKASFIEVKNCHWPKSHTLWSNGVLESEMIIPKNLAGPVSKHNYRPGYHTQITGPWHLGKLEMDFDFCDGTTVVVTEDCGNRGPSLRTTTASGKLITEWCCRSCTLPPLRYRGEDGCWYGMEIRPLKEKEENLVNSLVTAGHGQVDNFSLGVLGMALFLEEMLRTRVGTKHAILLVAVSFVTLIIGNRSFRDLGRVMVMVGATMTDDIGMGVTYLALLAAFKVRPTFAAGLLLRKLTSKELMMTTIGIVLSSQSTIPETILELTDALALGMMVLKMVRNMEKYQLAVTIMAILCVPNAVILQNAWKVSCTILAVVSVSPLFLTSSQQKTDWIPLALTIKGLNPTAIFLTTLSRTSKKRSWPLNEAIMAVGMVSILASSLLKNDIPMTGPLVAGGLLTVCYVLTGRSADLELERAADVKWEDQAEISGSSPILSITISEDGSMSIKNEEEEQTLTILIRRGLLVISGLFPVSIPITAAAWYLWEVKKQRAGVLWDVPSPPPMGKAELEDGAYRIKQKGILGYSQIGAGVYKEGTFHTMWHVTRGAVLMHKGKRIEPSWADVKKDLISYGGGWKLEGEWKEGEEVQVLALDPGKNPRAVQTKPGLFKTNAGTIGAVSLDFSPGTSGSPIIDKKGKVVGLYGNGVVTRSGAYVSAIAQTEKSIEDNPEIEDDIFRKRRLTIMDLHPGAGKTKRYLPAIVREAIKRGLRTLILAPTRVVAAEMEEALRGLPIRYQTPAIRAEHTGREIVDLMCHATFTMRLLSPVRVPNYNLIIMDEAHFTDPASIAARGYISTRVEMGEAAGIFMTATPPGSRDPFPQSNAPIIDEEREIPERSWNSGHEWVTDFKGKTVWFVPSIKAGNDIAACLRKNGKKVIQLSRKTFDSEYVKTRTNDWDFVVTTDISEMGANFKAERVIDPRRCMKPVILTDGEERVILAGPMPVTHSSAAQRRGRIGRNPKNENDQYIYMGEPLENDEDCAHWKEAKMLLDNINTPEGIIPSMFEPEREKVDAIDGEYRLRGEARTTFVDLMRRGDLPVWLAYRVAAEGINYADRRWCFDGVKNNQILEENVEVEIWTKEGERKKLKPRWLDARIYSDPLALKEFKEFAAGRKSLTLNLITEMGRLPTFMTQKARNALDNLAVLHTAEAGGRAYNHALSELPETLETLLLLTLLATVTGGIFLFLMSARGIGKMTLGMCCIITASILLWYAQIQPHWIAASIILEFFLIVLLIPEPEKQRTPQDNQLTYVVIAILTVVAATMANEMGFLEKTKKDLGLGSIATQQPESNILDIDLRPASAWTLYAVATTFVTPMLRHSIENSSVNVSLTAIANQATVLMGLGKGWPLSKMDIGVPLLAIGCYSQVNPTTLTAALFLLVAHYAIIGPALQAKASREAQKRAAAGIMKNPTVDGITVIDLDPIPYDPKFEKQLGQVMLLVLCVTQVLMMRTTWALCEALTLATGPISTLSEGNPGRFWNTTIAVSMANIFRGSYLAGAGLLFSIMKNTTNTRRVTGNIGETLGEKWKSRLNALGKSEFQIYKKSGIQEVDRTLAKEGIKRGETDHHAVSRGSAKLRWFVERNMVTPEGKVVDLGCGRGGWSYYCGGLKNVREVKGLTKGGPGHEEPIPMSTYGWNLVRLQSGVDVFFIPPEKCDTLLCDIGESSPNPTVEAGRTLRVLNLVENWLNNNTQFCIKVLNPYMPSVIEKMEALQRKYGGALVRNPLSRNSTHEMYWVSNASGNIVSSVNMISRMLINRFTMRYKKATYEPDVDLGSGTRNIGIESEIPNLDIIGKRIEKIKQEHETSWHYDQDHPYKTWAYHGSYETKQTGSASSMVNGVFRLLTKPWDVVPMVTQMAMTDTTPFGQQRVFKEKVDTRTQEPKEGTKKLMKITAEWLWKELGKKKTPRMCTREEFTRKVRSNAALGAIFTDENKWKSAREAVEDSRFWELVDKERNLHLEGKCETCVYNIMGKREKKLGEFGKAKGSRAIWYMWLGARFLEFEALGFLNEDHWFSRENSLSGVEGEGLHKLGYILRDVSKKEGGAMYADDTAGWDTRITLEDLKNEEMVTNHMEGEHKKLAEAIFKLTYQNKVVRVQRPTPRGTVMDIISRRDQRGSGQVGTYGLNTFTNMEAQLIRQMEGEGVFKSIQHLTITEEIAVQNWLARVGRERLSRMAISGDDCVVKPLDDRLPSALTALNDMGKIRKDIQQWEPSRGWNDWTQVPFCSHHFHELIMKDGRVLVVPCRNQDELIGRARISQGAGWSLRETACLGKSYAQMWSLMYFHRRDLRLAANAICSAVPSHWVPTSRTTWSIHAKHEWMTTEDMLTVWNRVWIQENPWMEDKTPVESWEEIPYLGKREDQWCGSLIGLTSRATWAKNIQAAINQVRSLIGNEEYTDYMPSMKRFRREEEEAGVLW
# The list shows a part of the results. Potency and affinity values are given separately. Calls of active or inactive are those of the source. No stated cut-off is given here; in the data, inconclusive means inhibition above about 29% without an active follow-up result; inactive means below that.
# Molecular target: Genome polyprotein (Dengue virus type 2 (strain 16681-PDK53)) (UniProt P29991)
# Assay: flavivirus cap methylation enzyme inhibition – biochemical, confirmation dose response, primary screen (AID 588689)
# Details: Dengue-2 NS5 methyltransferase capping enzyme assay, at 25 µM, hits give high values
row,Compound,inhibition
1,CN(C)C1(CNC(=O)c2ccc(S(C)(=O)=O)cc2)CCCCC1,inactive: -5.18%
2,O=C(/C=C/c1ccccc1)OC1CN2CCC1CC2 (configuration not stated),inactive: -10.1%
3,CCCC1OP(=O)(Nc2ccccc2)OCC1CC (configuration not stated),inactive: 9.68%
4,Cc1nn(-c2ccccc2)c2c1P(=O)(N1CCOCC1)N(C)C(c1ccccc1)=N2 (configuration not stated),inactive: -2.76%
5,Cc1ccc(C(=O)OC2CN3CCC2CC3)cc1 (configuration not stated),inactive: -9.14%
6,CC1CCC(C(C)C)C(OP(=O)(Nc2ccccn2)c2ccccc2)C1 (configuration not stated),inactive: -4.65%
7,Nc1cccc([As](=O)(O)c2ccccc2)c1,inactive: -8.63%
8,O=[As](O)(c1cccs1)c1cccs1,inactive: -7.18%
9,Cc1ccc(OCC(=O)OC2CN3CCC2CC3)cc1 (configuration not stated),inactive: -3.2%
10,NS(=O)(=O)c1cccc(NC(=O)COC(=O)C(O)(c2ccccc2)c2ccccc2)c1,inactive: -2.22%
11,O=P1(Nc2ccc(Br)cn2)COc2ccccc2OC1,inactive: 2.05%
12,O=P1(Nc2ncccn2)COc2ccccc2OC1,inactive: -9.41%
13,Clc1n[nH]nc1-c1nn[nH][15n]1,inactive: 0%
14,O=P1(N(CCCl)CCCl)NCCC(C(F)(F)F)O1 (configuration not stated),inactive: 0%
15,CC(C)(C)C(=O)NC(Sc1ncccn1)C(Cl)(Cl)Cl (configuration not stated),inactive: -7.84%
16,CCC1=CC2Cc3nc4ccc(Cl)cc4c(N)c3C(C1)C2 (configuration not stated),inactive: 4.01%
17,O=P1(Nc2ccccn2)COc2ccccc2OC1,inactive: -6.45%
18,CCOP(=O)(NC(=NC(C)c1ccccc1)NC(C)c1ccccc1)OCC (configuration not stated),inactive: -1.62%
19,CCOP(=O)(Nc1ccc(C)cn1)OCC,inactive: 3.3%
20,CN(C(=O)Cc1ccc(Cl)c(Cl)c1)[C@@H]1CCCC[C@H]1N1CCCC1,inactive: -4.48%
21,CC(C)/C=N\N=C(\N)N[N+](=O)[O-],inactive: -8.58%
22,CC1(CBr)Cn2c(nc3ccccc3c2=O)S1 (configuration not stated),inactive: -2.14%
23,COc1ccccc1CNC(=O)COC(=O)C(O)(c1ccccc1)c1ccccc1,inactive: 10.1%
24,Cc1cccc(OCC(=O)OC2CN3CCC2CC3)c1 (configuration not stated),inactive: -8.19%
25,O=[As](O)(c1cccc(O)c1)c1cccc(O)c1,inactive: -7.91%
26,O=C(OC1CN2CCC1CC2)c1ccc(Cl)cc1 (configuration not stated),inactive: 3.83%

row,Compound,inhibition
1,O=[As](O)(O)c1cccnc1,inactive: -5.49%
2,COc1cc(C(=O)NCC2(N3CCOCC3)CCCCC2)cc(Cl)c1OC(C)C,inactive: 4.37%
3,CS(=O)(=O)c1ccc(Cl)c(NC(=O)COC(=O)C(O)(c2ccccc2)c2ccccc2)c1,inactive: 3.28%
4,COc1cc(C2NCCC3(OCCO3)C2(C)C)cc(OC)c1OC (configuration not stated),inactive: 5.74%
5,CCOP(=O)(Nc1cccc2ccccc12)OCC,inactive: -7.96%
6,Cc1ccc(NCCc2c([N+](=O)[O-])cc([N+](=O)[O-])cc2[N+](=O)[O-])cc1,inactive: 7.95%
7,CCCOP(=S)(Nc1nc(N)cc(=O)[nH]1)OCCC,inactive: -6.46%
8,O=C(O)COc1ccc([As](=O)(O)O)cc1[N+](=O)[O-],inactive: -5.88%
9,Nc1ccccc1[As](=O)(O)c1ccccc1,inactive: -15.8%
10,CCOP1(=S)c2c(C)nn(CCC#N)c2N=C(c2ccccc2F)N1C (configuration not stated),inactive: 0%
11,O=P(Nc1nccs1)(Oc1ccccc1)Oc1ccccc1,inactive: 2.73%
12,O=P(Nc1nccs1)(c1ccccc1)c1nc2ccccc2s1 (configuration not stated),inactive: -9.66%
13,N#CCCN(C(=O)COC(=O)C(O)(c1ccccc1)c1ccccc1)c1ccc(F)cc1,inactive: -1.45%
14,CN(C(=O)Cc1ccccc1)[C@@H]1CC[C@]2(CCCO2)C[C@H]1N1CCCC1,inactive: 15.7%
15,CCOP1(=S)c2c(C)nn(CCC#N)c2N=C(c2ccc(F)cc2)N1C (configuration not stated),inactive: 0.69%
16,O=[N+]([O-])c1ccc2c(c1)nnn2O,inactive: -0.8%
17,CN(C)C(=O)c1cc([N+](=O)[O-])cc2c1-c1c(cc([N+](=O)[O-])cc1[N+](=O)[O-])C2=O,inactive: -0.78%
18,CN(C(=O)Cc1ccc(Cl)c(Cl)c1)[C@H]1CC[C@@]2(CCCO2)C[C@@H]1N1CCCC1,inactive: -2.2%
19,NC(=O)Nc1ccc([As](=O)(O)O)cc1,inactive: -10.2%
20,Cc1ccc(OP(=O)(Nc2ccc([N+](=O)[O-])cn2)Oc2ccc(C)cc2)cc1,inactive: 0.68%
21,Cc1ccc2nc3c(c(C)c2c1)CC(C(Cl)Cl)S3 (configuration not stated),inactive: -10.8%
22,O=[As](O)(c1ccc(O)cc1)c1ccccc1O,inactive: -14.1%
23,C[As](=O)(O)c1cccc(C(=O)O)c1,inactive: -6.46%
24,COc1cc(C(=O)NCC2(N3CCOCC3)CCCCC2)ccc1OCC(C)C,inactive: 1.86%
25,O=C(OC1CN2CCC1CC2)c1cccc2[nH]cnc12 (configuration not stated),inactive: -2.7%
26,CCN(CC)C(=S)SC(NC=O)C(Cl)(Cl)Cl (configuration not stated),inactive: -9%

row,Compound,inhibition
1,O=[N+]([O-])c1cc([N+](=O)[O-])c(-c2ccn[nH]2)s1,inactive: 10.7%
2,ClCCSc1nnc(-c2cccnc2)o1,inactive: -8.09%
3,COC(=O)C1(C)COP(=O)(N2CCCCCC2)OC1 (configuration not stated),inactive: 10.5%
4,CC(C)c1ccc(OP(=O)(Nc2ccccn2)Oc2ccccc2F)cc1 (configuration not stated),inactive: -9.24%
5,O=P1(N(CCCl)CCCl)OCCCN1CCCl (configuration not stated),inactive: 9.65%
6,O=P1(N(CCCl)CCCl)Nc2ccccc2N1,inactive: 17.9%
7,COc1ccc2nc(NP(=O)(c3ccccc3)c3ccccc3)sc2c1,inactive: 1.56%
8,COc1cc(I)ccc1[As](=O)(O)O,inactive: 0%
9,Cc1c2c(nc3ccccc13)SC(C(Cl)Cl)C2 (configuration not stated),inactive: -3.64%
10,O=C(OC1CN2CCC1CC2)C12CC3CC(CC(C3)C1)C2 (configuration not stated),inactive: -5.57%
11,Cc1cc(=O)[nH]c(N[N+](=O)[O-])n1,inactive: -6.34%
12,O=[N+]([O-])c1cc(Oc2ccc([N+](=O)[O-])cc2C(F)(F)F)cc([N+](=O)[O-])c1,inactive: 7.26%
13,COc1ccc(N/C(=N/P(=O)(N2CCOCC2)N2CCOCC2)N2CCOCC2)cc1,inactive: -7.46%
14,O=C(O)C(=O)c1ccc(N(CCCl)CCCl)cc1,inactive: -2.28%
15,O=C(COc1ccccc1)OC1CN2CCC1CC2 (configuration not stated),inactive: -0.8%
16,O=C(Nc1ccncc1[N+](=O)[O-])c1ccc([N+](=O)[O-])cc1[N+](=O)[O-],inactive: 0.65%
17,COP1(=S)c2c(C)nn(CCC#N)c2N=C(c2ccc(F)cc2)N1C (configuration not stated),inactive: 1.4%
18,CCC(C)N(CC(C)C)C(=S)SC(NC(C)=O)C(Cl)(Cl)Cl (configuration not stated),inactive: -2.45%
19,O=C(OC1CN2CCC1CC2)c1cccc([N+](=O)[O-])c1 (configuration not stated),inactive: -12.4%
20,CSc1ccc(Nc2c([N+](=O)[O-])cc([N+](=O)[O-])cc2[N+](=O)[O-])cc1,inactive: 32.2%
21,CCOC(=O)c1ccc(NC(=O)C(C)(CCl)SC)cc1 (configuration not stated),inactive: -3.11%
22,COP(=O)(OC)N1CC1c1ccccc1 (configuration not stated),inactive: 4.6%
23,CCCCOc1ccc(C(=O)NCC2(N3CCCCC3)CCCCC2)cc1OC,inactive: -9.98%
24,Cc1cc(SC(NC(=O)c2ccccc2)C(Cl)(Cl)Cl)nc(C(C)C)n1 (configuration not stated),inactive: 5.48%
25,O=C(O)C(O)c1ccc(N(CCCl)CCCl)cc1 (configuration not stated),inactive: -1.71%
26,CCOC(=O)Nc1ccc([As](=O)(O)O)c(O)c1,inactive: -9.13%

row,Compound,inhibition
1,CC1CCNP(=O)(N(CCCl)CCCl)O1 (configuration not stated),inactive: 3.1%
2,Cc1cc(SC(NC=O)C(Cl)(Cl)Cl)ncn1 (configuration not stated),inactive: 0%
3,O=P(Nc1ccccn1)(c1cccc2ccccc12)c1cccc2ccccc12,inactive: 0%
4,O=[N+]([O-])c1ccc(Nc2ccc(Oc3ccc([N+](=O)[O-])cc3[N+](=O)[O-])cc2)c([N+](=O)[O-])c1,inactive: -5.22%
5,CCOC(=O)Nc1cccc([As](=O)(O)O)c1,inactive: -3.92%
6,O=C(Nc1cc([As](=O)(O)O)ccc1O)c1ccccc1,inactive: 0%
7,O=P1(N(CCCl)CCCl)OCCCS1 (configuration not stated),inactive: -1.55%
8,O=C(O)CNc1ccc([As](=O)(O)O)cc1,inactive: -0.65%
9,COC(=O)C1(C)COP(=O)(Nc2ccccc2)OC1 (configuration not stated),inactive: 8.87%
10,O=[N+]([O-])c1cccc(NC2=NCC(CBr)S2)c1 (configuration not stated),inactive: -1.53%
11,O=[N+]([O-])c1ncn(CCn2ncnc2[N+](=O)[O-])n1,inactive: -7.64%
12,CC(C)(C)C(=O)NC(Sc1ccncn1)C(Cl)(Cl)Cl (configuration not stated),inactive: -19.3%
13,Cc1ccc(NP(=O)(Oc2ccccc2)Oc2ccccc2)nc1,inactive: -3.7%
14,O=[N+]([O-])c1cc([N+](=O)[O-])c(CCNc2ccccc2)c([N+](=O)[O-])c1,inactive: 0%
15,CCc1nc2c(n1)c1c(non1O)c1c2no[n+]1[O-],inactive: 0.68%
16,CC(=O)N1C2C3N(C(C)=O)C1C1N(C(C)=O)C(C(N1C(C)=O)N3C(C)=O)N2C(C)=O,inactive: 3.75%
17,O=[N+]([O-])c1cccc2n[nH]nc12,inactive: 7.16%
18,COc1ccc(C2=NCC(CBr)S2)cc1 (configuration not stated),inactive: -5.31%
19,CC1CCN(C(=O)Oc2c(Cl)cc(Cl)c3cccnc23)CC1,inactive: -6.17%
20,c1cc(-c2nn[nH]n2)ccc1-c1nn[nH]n1,inactive: 4.57%
21,CC(C)c1nc(Nc2ccccc2)n(P(=O)(N(C)C)N(C)C)n1,inactive: 1.15%
22,CC(C)=N/N=C(\N)N[N+](=O)[O-],inactive: -5.89%
23,CN(C)C(=O)OCCc1n(C)cc[n+]1C,inactive: -7.71%
24,CCN(/C(=N/P(=O)(N1CCOCC1)N1CCOCC1)N1CCOCC1)c1ccc(OC)cc1,inactive: -4.51%
